Experimental findings from the supplement of paper PMC9931576 are described below.

Human monoclonal antibodies against the spike receptor-binding domain (heavy:light variable regions). IC50 against pseudoviruses bearing the spike of naturally observed variants; lower = stronger; >10 µg/ml means not reached at the top dose. No active / inactive call. The stated detection limit is 0.0005 µg/ml; values near or below 0.001 µg/ml lie at the floor of the assay. Where only a bound is given, the exact number is not on record here.

Holding throughout (experiment): pseudovirus neutralization IC50; higher = weaker neutralization
The target in test [1] is SARS-CoV-2 Omicron BA.1 spike pseudovirus. How it is done:
(§1)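 Single-round VSV luciferase pseudovirus mixed with antibody dilutions for 1 h and put on Huh-7 cells for about a day; IC50 from the dose curve.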

In test [2] the target is SARS-CoV-2 Omicron BA.2 spike pseudovirus. How it is done: as §1
Test [3] has as its target SARS-CoV-2 Omicron BA.2.75 spike pseudovirus. How it is done:
as §1

For test [4], the target named is SARS-CoV-2 Omicron BA.5 spike pseudovirus. How it is done:
as §1

Test [5] concerns the target SARS-CoV-2 Omicron BQ.1.1 spike pseudovirus. The procedure: as §1
The target in test [6] is SARS-CoV-2 Omicron XBB spike pseudovirus. The procedure:
as §1

The target in test [7] is SARS-CoV-2 early D614G spike pseudovirus. How it is done:
as §1

B1: BD55-5236 (protein)
chain 1: QVQLVQSGAEVKKPGSSVKVSCKASGGTFTSQAISWVRQAPGQGLEWMGRIITVLGTTTYAQKFQGRLRITADRSTNTAYMDLTGLTSDDTAVYFCARDLDGYSGYDFGSSERRDSFYFDYWGQGTLVNVPS
chain 2: SSELTQDPPVSVALGQTVRITCQGDSLRTYYASWFQQKPGQAPLLVVYGKNYRPSGIPARFSGSFSGNTASLTITGAQAEDEADYYCNSRDSNNDHHVIFGGGTKLTVL
With B1, the “pseudovirus neutralization IC50” value in test [1], in test [2], in test [3], in test [4], in test [5] and in test [6] was more than 10 µg/mL throughout. The “pseudovirus neutralization IC50” value in test [7] was 0.212 µg/mL.

B2: BD55-5234 (protein)
chain 1: QVQLVQSGAEVRKPGASVKVSCKASGYTFNSHDINWVRQAVGQGLEWMGWMNPLSGDTGFAQSFQGRVILTRDSSISTAYMELRSLRSDDTAVYYCARGYPYSDMLTGVSHYYYGLDVWGQGTTVTVSS
chain 2: DIQMTQSPSSLSASVGDRVTITCRASQGISNSLAWFQQKPGKAPKSLIYGASSLQSGVPSKFSGSGSGTDFTLTISSLQPEDFATYYCQQYHSYPLTFGGGTKVEMK
On to B2, for which the “pseudovirus neutralization IC50” value in test [1], in test [2], in test [3], in test [4], in test [5] and in test [6] was more than 10 µg/mL throughout. Moreover, the “pseudovirus neutralization IC50” value in test [7] was more than 10 µg/mL.

B3: BD55-5223 (protein)
chain 1: EVQLLESGGGWVQPGGSLRLSCAASGFTFSSYAMSWVRQAPGKGLEWVSAISNTGGSTYYADSVKGRFTVSRDDSKNTLYLQMNSLRAEDTAVYYCAKNWDSIGYTSGWQHLDWFDPWGQGTLVTVSS
chain 2: DIQMTQSPSSLSASVGDRVTITCRASQSINTYLNWYQQKPGKAPKLLIYVASSLQSGVPSRFSGSGSGTDFTLTISSLQPEDFATYYCQQSYSSPSITFGQGTRLEIK
Take B3: the “pseudovirus neutralization IC50” value in test [1], in test [2], in test [3], in test [4], in test [5] and in test [6] was more than 10 µg/mL throughout. The “pseudovirus neutralization IC50” value in test [7] was found to be 0.14 µg/mL.

B4: BD55-5286 (protein)
chain 1: QVQLVQSGSELKRPGASVRVSCETSGYTFTDYAINWVRQAPGQGLEWMGWINTYSGHPTYAQAFTGRFVFSVDMSGSTAYLQISSLKPADTAVYYCARDLQVPEGLDYWGQGTLVTVSS
chain 2: DIVMTQSPATLSLSPGETATLSCRASYSFTSRLAWYQQKFGQAPRLLIHDASTRAPGVPARFSGSGSGTEFTLAISSLQSEDSAVYYCQQYHSWPLTFGQGTKVEI
Turning to B4, the “pseudovirus neutralization IC50” value in test [1] is 0.0928 µg/mL; in test [2] it was 0.0573 µg/mL; in test [3], 1.39 µg/mL; in test [4], 0.108 µg/mL; in test [5], more than 10 µg/mL; in test [6] it was more than 10 µg/mL. In addition, in test [7], the “pseudovirus neutralization IC50” value was 0.00115 µg/mL.

B5: BD55-5256 (protein)
chain 1: QVQLVQSGTEVKKPGSSVKVSCKASGGPFSGYVINWVRQAPGQGLEWMGGIIPVFETVKYAQKFQGRVTITAGESASTAYMELNSLRSEDTAVYYCAKSKYHSGYDVLTGRADFSLPFDYWGQGTLVTVSS
chain 2: DIQMTQSPSSLSASVGDRVIITCQASQDITNSLSWYQQKPGKAPKLLIYGAFNLETGVPSRFSGSGSGTDFTFAISSLQPEDIATYFCQQYADLPYTFGQGTKLDIK
B5: the “pseudovirus neutralization IC50” value worked out at 3.7 µg/mL in test [1]; 2.28 µg/mL in test [2]; 3.49 µg/mL in test [3]; 5.23 µg/mL in test [4]; 4.4 µg/mL in test [5]; 3.26 µg/mL in test [6]. Also, the “pseudovirus neutralization IC50” value in test [7] stood at 0.47 µg/mL.

B6: BD55-5268 (protein)
chain 1: QVQLQQRGAGLLRPSETLSLTCDVSGGSFSGYYWNWVRQPPGKGLEWIGDIDLAGDNYNPSLKSRVTMSIDASKNQFSLRLSSVTAADTAVYFCVRAPNLGWFGPKQGAFDLWGQGTVVIVSS
chain 2: not shown
Consider B6, for which the “pseudovirus neutralization IC50” value in test [1], in test [2], in test [3], in test [4], in test [5] and in test [6] was more than 10 µg/mL throughout. The “pseudovirus neutralization IC50” value in test [7] was found to be 0.73 µg/mL.

B7: BD55-1034 (protein)
chain 1: QVQLVQSGAEVKKPGASVMVSCKASGYTFTNYYIHWVRLAPGQGLEWVGIINPDGDSTTYAQRFQGRVTLTADTSTSTVYMYLRRLRSEDTAVYYCARGTDFVPIDRRPFDCWGQGTLVTVSS
chain 2: DIVMTQSPDSLAVSLGERATINCKSSQSGLYSSNNKSYLAWYQQKPGQPPKLLIYWASTRESGVPDRFSGSGSGTDFTLTISSLQAEDVAVYYCHQYYNTPHTFGQGTKLEIK
As to B7, the “pseudovirus neutralization IC50” value in test [1], in test [2], in test [3], in test [4], in test [5] and in test [6] was more than 10 µg/mL each time. For the same molecule, in test [7], the “pseudovirus neutralization IC50” value was more than 10 µg/mL.

B8: BD55-5301 (protein)
chain 1: EVQLVESGGGVVQPGGSLRLSCAASGFTFYDYAMNWVRQAPGKGLEWVSLISWNGGITYYADSVKGRFTISRDNSKNSLYLQMNSLKPEDTALYYCAKDIFRDHDLLTHDNFDYWGQGTLVTVAS
chain 2: QSVLTQPPSASGTPGQRVTISCSGSSSNIGINIVSWYQQLPGAAPKLLIYSNNQRPSGVPDRFSGSKSGTSASLAISGLQSEDEADYHCVAWDDTLNGPVFGGGTKLTVL
Consider B8, for which the “pseudovirus neutralization IC50” value in test [1], in test [2], in test [3], in test [4], in test [5] and in test [6] was more than 10 µg/mL throughout. For the same molecule, the “pseudovirus neutralization IC50” value in test [7] amounted to 0.0376 µg/mL.

B9: BD55-5309 (protein)
chain 1: QVRLIQSGAEVKKPGSSVTISCKASGGSFSSYSISWVRQAPGQGLEWVGGFVPLFHKADYAQTFQGRVTITADESTTTTSMELTSLRVEDTAVYYCARGEYFGYDYLGFYYGLDVWGQGTTIAVSS
chain 2: QIVVTQEPSLTVSPGETVTLTCGSSAGAVTSGHYPYWFQKKPGQAPRTLIYNTNKKHSWTPARFSGSLIAGKAALTLSGALPDDEADYYCLVATVFGGGTKLTVL
Consider B9, for which the “pseudovirus neutralization IC50” value in test [1], in test [2], in test [3], in test [4], in test [5] and in test [6] was more than 10 µg/mL in each case. The “pseudovirus neutralization IC50” value in test [7] is 0.384 µg/mL.

B10: BD55-5259 (protein)
chain 1: QITLKESGPTLVKPTQTLTLTCTFSGFSLTMPEVGVAWVRQPPGKALEWLALIYGDDNKRYSPSLESRLTITKDSSKNQVVLTMTNLDSVDTATYYCARRKFLWDSDPVAFDYWGLGTLVIVSS
chain 2: DIVMTQTPLSLPVTLGQPASISCRSSQSLVHIDGNIYLSWLQQRPGQPPRLLIYKISNRFSGVPDRFSGSGSGTDFTLKISRVEAEDVGVYYCMQATQFPHEMYTFGQGTKLEIR
B10: the “pseudovirus neutralization IC50” value in test [1] was 3.9 µg/mL; in test [2] it was 4.3 µg/mL; in test [3] it was 3.85 µg/mL; in test [4], 4.47 µg/mL; in test [5], 3.34 µg/mL; in test [6], 4.3 µg/mL. Moreover, the “pseudovirus neutralization IC50” value in test [7] stood at 0.625 µg/mL.

B11: BD55-5245 (protein)
chain 1: QVQLVQSGAEVKKPGSSVKVSCKASGGSLSSDGINWVRQAPGQGLEWLGRIIPIPGIADNAQKFQGRVTITADKSTSTAYMELSSLRSEDTAVYYCARAPPRGYSGYDLLGNDAFDIWGQGTMVTVSS
chain 2: QSVLTQPPSVSGAPGQRVTISCTGSSSNIGAGYDVHWYQQLPGTAPKLLLYGNTNRPSGVPDRFTGSKSGTSASLAITGLQAEDEADYYCQSYDTSLSGSYVFGTGTKVAVL
With B11, the “pseudovirus neutralization IC50” value in test [1], in test [2], in test [3], in test [4], in test [5] and in test [6] was more than 10 µg/mL each time. Moreover, the “pseudovirus neutralization IC50” value in test [7] was 0.579 µg/mL.

B12: BD55-5304 (protein)
chain 1: EVQLVESGGGLVQPGRSLRLSCAASGFNFDDYAMHWVRQRPGKGLEWVSSISWNRGTIGYADSVKGRFTISRDNAKDSLFLQMNSLRPEDTAVYYCAKDIDQQWELFGGHFDSWGPGTLVTVSS
chain 2: QSVLTQPPSVSGAPGQRVTISCTGSSSNIGAGYGVHWYQQLPGTAPKLLIYSSTNRPSGVPDRFSGSKSGTSASLAITGLQAEDEADYYCQSYDSSLSGSEVFGGGTKLTVL
Turning to B12, the “pseudovirus neutralization IC50” value was 0.155 µg/mL in test [1]; more than 10 µg/mL in test [2]; more than 10 µg/mL in test [3]; more than 10 µg/mL in test [4]; more than 10 µg/mL in test [5]; more than 10 µg/mL in test [6]. Further, the “pseudovirus neutralization IC50” value in test [7] was 0.0181 µg/mL.

B13: BD55-5205 (protein)
chain 1: QVQLQESGPGLVQPSETLSLTCTVSGTSITNYYWSWIRQPPGKGLEWIGYIYYSGKINYNPSLKSRVTMSMDTPKNRFSLRLTSVTAADTAIYYCARGSIVADGPNTIDLWGQGTLVVVSS
chain 2: QSALTQPASVSGSPGQSITISCTGTSSDVGAYDYVSWYQQHPGKAPKLLIFDVNKRPSGVSNRFSGSKSGNTASLTISGLQAEDEADYYCSSFESSITEVFGGGTKVTVL
Regarding B13, the “pseudovirus neutralization IC50” value in test [1], in test [2], in test [3], in test [4], in test [5] and in test [6] was more than 10 µg/mL throughout. In test [7], the “pseudovirus neutralization IC50” value is more than 10 µg/mL.
